Reference: ChEMBL document CHEMBL1155139 (Antimicrob Agents Chemother, 2007)
≈ marks a conversion by molar mass, not a printed value.

Experiments:
[1] = system: Plasmodium falciparum; assay: Antimalarial activity against Plasmodium falciparum K1; assay type: functional, organism-based
[2] = system: Plasmodium falciparum; assay: Antimalarial activity against Plasmodium falciparum NF54; assay type: functional, organism-based
[3] = system: Plasmodium falciparum; assay: Antimalarial activity against Plasmodium falciparum W2
[4] = system: Plasmodium falciparum; assay: Antimalarial activity against Plasmodium falciparum D6

With `C1CCC2(C1)OOC1(CCCC1)OOC1(CCCC1)OO2` the IC50 [1] was > 10 µg/mL and the IC50 [2] was > 10 µg/mL.

`C1CCC2(CC1)OOC1(CCCCC1)OO2` was tested, and the IC50 [3] was 0.02 µg/mL (≈ 0.0876 µM), the IC50 [4] was 0.026 µg/mL (≈ 0.114 µM) and the IC50 [1] was 0.03 µg/mL (≈ 0.131 µM). It also gave an IC50 [2] of 0.044 µg/mL (≈ 0.193 µM).

`C1CCC2(CC1)OOC1(CCCCC1)OOC1(CCCCC1)OO2` showed an IC50 [1] of 0.77 µg/mL (≈ 2.25 µM) and an IC50 [2] of 2.7 µg/mL (≈ 7.88 µM).

`C1CCCC2(CC1)OOC1(CCCCCC1)OOC1(CCCCCC1)OO2` showed an IC50 [1] of 2 µg/mL (≈ 5.2 µM) and an IC50 [2] of 3.2 µg/mL (≈ 8.32 µM).

With `C1CC2(CCO1)OOC1(CCOCC1)OOC1(CCOCC1)OO2` the IC50 [1] was > 10 µg/mL and the IC50 [2] was > 10 µg/mL.

`CCCC1(CCC)OOC(CCC)(CCC)OOC(CCC)(CCC)OO1` was tested, and the IC50 [1] was 7.4 µg/mL (≈ 18.9 µM) and the IC50 [2] was > 5.5 µg/mL.
